# Results from the supplement of paper PMC9931576.
# Where a chain is given by its changes, count along the chain named. Human monoclonal antibodies against the spike receptor-binding domain (heavy:light variable regions). IC50 against pseudoviruses bearing the spike of naturally observed variants; lower = stronger; >10 µg/ml means not reached at the top dose. No active / inactive call. The stated detection limit is 0.0005 µg/ml; values near or below 0.001 µg/ml lie at the floor of the assay.
# B1: BD55-5521 (protein)
# chain 1: EVQLVESGGGLVQPGRSLRLSCAASGFTFEDYVIHWVRQPPGRGLEWVSRISWNSGIIDYADSVKGRFTISRDNAKNSLYLQMNSLRAEDTALYYCAKDMVVGYCSDGSCNDAFDVWGQGTMVTVSS
# chain 2: QSVLTQPPSVSGAPGQRVTISCTGSSSNIGAGYDVHWYQKLPGTAPKLLIYGNSNRPSGVPDRFSGSKSGTSASLAITGLQADDEADYYCQSYDTSLSGRAMFGGGTKLTVL
# B2: BD55-5540 (protein)
# chain 1: QVQLVQSGAEVKKPGSSVKVSCQASGGTFSSYAIIWVRQAPGQGLEWMGGLIPIFGTTTNAQEFQGRVTLTADGVTDTAYMELRSLGSDDTAVYYCARSSHTSTWDPYLDHWGQGTLVIVSS
# chain 2: QSVVTQPPSASGTPGQRVTVSCSGSSSNIGSNTVNWYQQVPGTAPKLLIYTNNQRPSGVPDRFSGSKSGTSASLAISGLQSEDEADYYCAAWDDSLNAVVFGGGTKLTVL
# B3: BD55-5550 (protein)
# chain 1: EVQLVESGGNLVQPGGSLRLSCAASGFTFSRHAMHWVRQAPGKGLEYVSSISRDGGAKFYADSVKGRFTISRDNSKSTLSLQMGSLGAEDMAVYFCAREDLRSFDWSLDYWGQGTLVTVSS
# chain 2: DIQMTQSPSSLSASVGDRVTITCRAGQSITTYLNWYQQKPGKAPKLLIYAASSLQSGVPSRFSGSGSGTDFTLTITNLQPEDFATYYCQQSYTSPMYTFGQGTKLEIK
# B4: BD55-5558 (protein)
# chain 1: QITLKESGPTLVKPKQTLTLTCTFSGFSLKKNGVGVGWIRQPPGKALEWLSLIYWDDTKRYTPSLKTRLTVTGDTSKNQVVLTLTNVDPVDTATYFCAHRPDLDSDLIVVDAFDMWGQGTMVTVSS
# chain 2: QSVLTQPPSASGTPGQRVTISCSGSSSNIGRNTVNWYQHLPGTAPKLLIYHNNHRPSGVPDRFSGSKSGTSASLAISGLQSEDEADYYCETWDDSLGGVVFGAGTRLTVL
# B5: BD55-5566 (protein)
# chain 1: EVQLVESGGGLVQPGRSLRLSCTVSGFTFGDHAMSWVRQAPGKGLEWVGFIRSKAFGGTTEYAASVRGRFTISRDDSKSIAYLQMISLKTADTGVYYCARDLTYGVYQYDSTVYFPGLDSWGQGALVTVSS
# chain 2: DIVMTQTPLSLSVTPGQPASISCKSSQSLLHGDGKTYLYWYLQKAGQSPQLLIYEVSKRFSGVPDRFSGSGSGTDFTLKISRVEAEDVGVYYCMQSKQLRTFGQGTKVEIK
# B6: BD55-5579 (protein)
# chain 1: EVQLVESGGGLVQPGGSLRLSCAASGFTFSSYPMHWVRQAPGKGLEYVSSITTDGGGAFYADSVKGRFTISRDNSKNTLYLQMGSLTVEDMAVYYCAREARGWSCYFDNWGQGTVVTVSS
# chain 2: DIHMTQSPSSLSASVGDRVTITCRASQGISNSLAWYQQKPGKAPKLLLYAASRLESGVPSRFSGSGSGTDYTLTISSLQPEDFATYYCQQYYVTPMYTFGQGTKLEIK
# B7: BD55-5589 (protein)
# chain 1: QVTLKESGPVLVRPTETLTLTCTVSGFSLRNARMGVSWIRQPPGKALEWLAHIFSDDEYSYRTSLHTRLTLSKDTSKSQVVLTMTNMDPVDTATYFCARIYDTSGFYYFDYWGQGTLVTVSS
# chain 2: DIQMTQSPSSLSASVGDRVTITCRASQSISMYLNWYQQRPGKAPNLLIYAASNLLSGVPSRFSGSGSGTDFTLTISSLQPEDFATYYCQQSYSTPPYTFGQGTKLEIK
# B8: BD55-5591 (protein)
# chain 1: QVQLLQSGAEVKKPGSSVTVSCKASGGTFTNSAINWVRQAPGQGLEWMGGVIPIFGPTNYAEKFQGRVTITADESTSTAYLDLSSLRSEDTAVYYCARAHCGDCTPPRGYYFYYFGMDVWGQGTTVTVSS
# chain 2: SYELTQPPSVSVSPGQTARITCSGDALSNQYAYWYQQRPGQAPVLLMYKDNERPSGIPERFSGSNSGTTVTLTVSGVQAEDEADYYCQSADTTSTYVVFGGGTKLTVL
# B9: BD55-5593 (protein)
# chain 1: EVELVESGGGLVQPGGSLRLSCAASGFAFSSHEMTWVRQAPGKGLEWIAYISSSGYSIYYADSVKGRFVISRDDAKNSLFLQMNSPRSEDTAIYYCARVLNRGPVAGTLLDYWGQGTLVTVSS
# chain 2: QSVLTQPPSVSGAPGQRVTISCTGSSSNIGAGYAVHWYQQLPGAPPKLLIYHNSNRPSDVPDRFAGSTSGTSASLAITGLQAEDEADYYCLSYETSLLSAFYVFGTGTRVTV
# B10: BD55-5598 (protein)
# chain 1: QVQLVQSGAEVKKPGSSVKVSCKASGGTFSSYAVIWVRQAPGQGLQWMGGIIPLLGRKIYAREFQGRVTLTADGSTDTAFLELSSLRPGDTAVYFCARSSQTSSWDPFLDYWGQGTLVSVPS
# chain 2: B2 chain 2 with V4L, V20I, S31G, T33S, T43A, T51S, N53Y, P60S, K67W, D86N
# B11: BD55-5612 (protein)
# chain 1: QLQLQESGPGLVKPSETLSLTCSVSGGSINSNLDYWGWIRQPPGKGLEWIGTISSGGNTYYSPSLKSRVTIVVDTSKNHFSLKLTSVTAADTAVYYCARSRGDYHYYYFYGLDVWGQGTTVTVSS
# chain 2: SYELTQPPSVSVSPGQTAGITCSGDALPNQYSYWYQQKPGQAPLLLIYKDNERPSEIPERFSGSSSGTTVALTISGVQAEDEADYYCQSSDRSGNVVFGGGTKLTVL
# B12: BD55-5617 (protein)
# chain 1: QMQLVQSGPEVKKPGTSVKVSCKASGFTFSSSAVQWVRQARGQRLEWIGWIEVGSGDTNYAQRFQDRVTISRDMSTSTAYMELRSLRSEDTAVYYCAAKVIGGYWYFDLWGRGSLITVSS
# chain 2: DIQMTQSPSSLSASVGDRVTITCRASQGIGNYLAWYQQKPGEAPKLLIYDASTLQYGVPSRFSGSGSGTDFTLTISSLQPEDVAIYYCQKFNSDPYTFGQGTKLEIK
# Tests used:
# Experiment in all cases: pseudovirus neutralization IC50; higher = weaker neutralization
# [1] = molecular target: SARS-CoV-2 Omicron BA.1 spike pseudovirus
# Method: (§1)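 Single-round VSV luciferase pseudovirus mixed with antibody dilutions for 1 h and put on Huh-7 cells for about a day; IC50 from the dose curve.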
# [2] = molecular target: SARS-CoV-2 Omicron BA.2 spike pseudovirus
# Method: as §1
# [3] = molecular target: SARS-CoV-2 Omicron BA.2.75 spike pseudovirus
# Method: as §1
# [4] = molecular target: SARS-CoV-2 Omicron BA.5 spike pseudovirus
# Method: as §1
# [5] = molecular target: SARS-CoV-2 Omicron BQ.1.1 spike pseudovirus
# Method: as §1
# [6] = molecular target: SARS-CoV-2 Omicron XBB spike pseudovirus
# Method: as §1
# [7] = molecular target: SARS-CoV-2 early D614G spike pseudovirus
# Method: as §1
binder,measurement,setting,value
B1,pseudovirus neutralization IC50,[1],> 10 µg/mL
same,pseudovirus neutralization IC50,[2],> 10 µg/mL
same,pseudovirus neutralization IC50,[3],> 10 µg/mL
same,pseudovirus neutralization IC50,[4],> 10 µg/mL
same,pseudovirus neutralization IC50,[5],> 10 µg/mL
same,pseudovirus neutralization IC50,[6],> 10 µg/mL
same,pseudovirus neutralization IC50,[7],0.0807 µg/mL
B2,pseudovirus neutralization IC50,[1],> 10 µg/mL
same,pseudovirus neutralization IC50,[2],> 10 µg/mL
same,pseudovirus neutralization IC50,[3],> 10 µg/mL
same,pseudovirus neutralization IC50,[4],> 10 µg/mL
same,pseudovirus neutralization IC50,[5],> 10 µg/mL
same,pseudovirus neutralization IC50,[6],> 10 µg/mL
same,pseudovirus neutralization IC50,[7],> 10 µg/mL
B3,pseudovirus neutralization IC50,[1],> 10 µg/mL
same,pseudovirus neutralization IC50,[2],> 10 µg/mL
same,pseudovirus neutralization IC50,[3],> 10 µg/mL
same,pseudovirus neutralization IC50,[4],> 10 µg/mL
same,pseudovirus neutralization IC50,[5],> 10 µg/mL
same,pseudovirus neutralization IC50,[6],> 10 µg/mL
same,pseudovirus neutralization IC50,[7],> 10 µg/mL
B4,pseudovirus neutralization IC50,[1],0.016 µg/mL
same,pseudovirus neutralization IC50,[2],> 10 µg/mL
same,pseudovirus neutralization IC50,[3],> 10 µg/mL
same,pseudovirus neutralization IC50,[4],> 10 µg/mL
same,pseudovirus neutralization IC50,[5],> 10 µg/mL
same,pseudovirus neutralization IC50,[6],> 10 µg/mL
same,pseudovirus neutralization IC50,[7],0.0157 µg/mL
B5,pseudovirus neutralization IC50,[1],> 10 µg/mL
same,pseudovirus neutralization IC50,[2],> 10 µg/mL
same,pseudovirus neutralization IC50,[3],> 10 µg/mL
same,pseudovirus neutralization IC50,[4],> 10 µg/mL
same,pseudovirus neutralization IC50,[5],> 10 µg/mL
same,pseudovirus neutralization IC50,[6],> 10 µg/mL
same,pseudovirus neutralization IC50,[7],0.0925 µg/mL
B6,pseudovirus neutralization IC50,[1],> 10 µg/mL
same,pseudovirus neutralization IC50,[2],> 10 µg/mL
same,pseudovirus neutralization IC50,[3],> 10 µg/mL
same,pseudovirus neutralization IC50,[4],> 10 µg/mL
same,pseudovirus neutralization IC50,[5],> 10 µg/mL
same,pseudovirus neutralization IC50,[6],> 10 µg/mL
same,pseudovirus neutralization IC50,[7],> 10 µg/mL
B7,pseudovirus neutralization IC50,[1],> 10 µg/mL
same,pseudovirus neutralization IC50,[2],> 10 µg/mL
same,pseudovirus neutralization IC50,[3],> 10 µg/mL
same,pseudovirus neutralization IC50,[4],> 10 µg/mL
same,pseudovirus neutralization IC50,[5],> 10 µg/mL
same,pseudovirus neutralization IC50,[6],> 10 µg/mL
same,pseudovirus neutralization IC50,[7],> 10 µg/mL
B8,pseudovirus neutralization IC50,[1],0.00316 µg/mL
same,pseudovirus neutralization IC50,[2],0.0143 µg/mL
same,pseudovirus neutralization IC50,[3],0.0349 µg/mL
same,pseudovirus neutralization IC50,[4],0.0167 µg/mL
same,pseudovirus neutralization IC50,[5],> 10 µg/mL
same,pseudovirus neutralization IC50,[6],> 10 µg/mL
same,pseudovirus neutralization IC50,[7],0.00178 µg/mL
B9,pseudovirus neutralization IC50,[1],3.09 µg/mL
same,pseudovirus neutralization IC50,[2],2.99 µg/mL
same,pseudovirus neutralization IC50,[3],3.28 µg/mL
same,pseudovirus neutralization IC50,[4],3.33 µg/mL
same,pseudovirus neutralization IC50,[5],4.32 µg/mL
same,pseudovirus neutralization IC50,[6],4 µg/mL
same,pseudovirus neutralization IC50,[7],2.47 µg/mL
B10,pseudovirus neutralization IC50,[1],2.28 µg/mL
same,pseudovirus neutralization IC50,[2],3.01 µg/mL
same,pseudovirus neutralization IC50,[3],1.41 µg/mL
same,pseudovirus neutralization IC50,[4],5.41 µg/mL
same,pseudovirus neutralization IC50,[5],5.28 µg/mL
same,pseudovirus neutralization IC50,[6],2.79 µg/mL
same,pseudovirus neutralization IC50,[7],2.25 µg/mL
B11,pseudovirus neutralization IC50,[1],0.246 µg/mL
same,pseudovirus neutralization IC50,[2],0.658 µg/mL
same,pseudovirus neutralization IC50,[3],0.869 µg/mL
same,pseudovirus neutralization IC50,[4],1.79 µg/mL
same,pseudovirus neutralization IC50,[5],> 10 µg/mL
same,pseudovirus neutralization IC50,[6],> 10 µg/mL
same,pseudovirus neutralization IC50,[7],0.00262 µg/mL
B12,pseudovirus neutralization IC50,[1],> 10 µg/mL
same,pseudovirus neutralization IC50,[2],> 10 µg/mL
same,pseudovirus neutralization IC50,[3],> 10 µg/mL
same,pseudovirus neutralization IC50,[4],> 10 µg/mL
same,pseudovirus neutralization IC50,[5],> 10 µg/mL
same,pseudovirus neutralization IC50,[6],> 10 µg/mL
same,pseudovirus neutralization IC50,[7],> 10 µg/mL
